Compound potency records, mixed from different reports. Data source: NIAID ChemDB in PubChem.

Common to all: target-level tests; species: HIV-1; protein: Integrase

a–b is a range or a potency band. An empty or dashed field is not shown. Fold resistance: result on the changed form divided by that on wild type. ICn is the concentration giving n% inhibition. Lines come from different laboratories, so protocols vary.

SMILES | mutations | read by | measure | result
CN(C)CC1c2nc(C(=O)NCc3ccc(F)cc3)c(O)c(=O)n2CCN1Cc1ccn(C)n1 | - | ELISA | IC50 | <10 µM
CN(Cc1ccccc1Cc1ccc(F)cc1)C(=O)/C=C(\O)C(=O)O | - | strand transfer | IC50 | <70 µM
CN(C)C(=O)C(=O)N1CCC2(CC1)OCCCn1c2nc(C(=O)NCc2ccc(F)cc2)c(O)c1=O | - | binding / radiometric | Ki | 0.003–0.05 µM
CN(Cc1ccc(Cl)c(Cl)c1)C(=O)/C=C(\O)C(=O)O | - | strand transfer | IC50 | <70 µM
CC(C)(C)C(O)c1cn2ccn(Cc3cccc(Cl)c3)c(=O)c2c(O)c1=O | - | ELISA | IC50 | 0.01–0.1 µM
CN1CCn2c(nc(C(=O)NCc3ccc(F)cc3)c(O)c2=O)C(NS(C)(=O)=O)C1 | - | ELISA | IC50 | <10 µM
Cc1cc2c(cc1Cl)SC(C(=O)c1ccc(Cl)c(Cl)c1)=NS2(=O)=O | INTG-C65S | strand transfer | fold resistance | 1.4
CC(=O)N1CCn2c(nc(C(=O)NCc3ccc(F)cc3)c(O)c2=O)C1 | - | ELISA | IC50 | <10 µM
Cc1ncnn1-c1cc(F)ccc1CNC(=O)c1nc2n(c(=O)c1O)CCOCC21CCN(C(=O)N(C)C)CC1 | - | binding / radiometric | Ki | 0.003–0.05 µM
O=C(Cc1ccc(F)cc1)Nc1cn2ccn(Cc3cccc(Cl)c3)c(=O)c2c(O)c1=O | - | ELISA | IC50 | <0.01 µM
CN(C)C(=O)C(=O)NC12CCC(N(C)C)(CC1)Cn1c2nc(C(=O)NCc2cccc(Cl)c2F)c(O)c1=O | - | radiometric | Ki | 0.000005 µM
O=C(O)/C(O)=C/C(=O)N(CCOc1ccccc1)Cc1ccc(F)cc1 | - | strand transfer | IC50 | <70 µM
COC(=O)N1CCC2(CC1)OCCCn1c2nc(C(=O)NCc2ccc(F)cc2-n2ncnc2C)c(O)c1=O | - | binding / radiometric | Ki | 0.003–0.05 µM
CN(C)C(=O)C(=O)N(C)C12CCC(CC#N)(CC1)Cn1c2nc(C(=O)NCc2ccc(F)cc2)c(O)c1=O | - | radiometric | Ki | 0.0000023 µM
Cc1nnc(C(=O)N2CCC3(CC2)NCCn2c3nc(C(=O)NCc3ccc(F)cc3)c(O)c2=O)o1 | - | binding / radiometric | Ki | 0.003–0.05 µM
Cc1cc(CNC(=O)c2nc3n(c(=O)c2O)CC2(F)CCC3(N(C)C(=O)C(=O)N(C)C(C)C)CC2)ccc1F | - | radiometric | Ki | 0.000002 µM
O=C1c2c(O)c(=O)c(-c3ccncn3)cn2CCN1Cc1ccc(F)c(Cl)c1 | - | ELISA | IC50 | 0.01–0.1 µM
Cc1cc2c(cc1Cl)SC(C(=O)c1ccc3ccccc3c1)=NS2(=O)=O | INTG-C65S | strand transfer | fold resistance | 5
O=C1c2c(O)c(=O)c(NS(=O)(=O)c3ccccc3)cn2CCN1Cc1ccc(F)c(Cl)c1 | - | ELISA | IC50 | 0.01–0.1 µM
CN(Cc1ccc(F)c(F)c1)C(=O)/C=C(\O)C(=O)O | - | strand transfer | IC50 | <70 µM
O=C(OCc1ccccc1)C(Cc1ccccc1)c1cc(=O)c(O)c2n1CCN(Cc1ccc(Cl)c(Cl)c1)C2=O | - | ELISA | IC50 | 0.01–0.1 µM
COc1ccc(C(=O)C2=NS(=O)(=O)c3cc(C)c(Cl)cc3S2)cc1 | INTG-C65S | 3′ processing | fold resistance | >3.3
Cc1cc(CNC(=O)c2nc3n(c(=O)c2O)CC2(CF)CCC3(N(C)C(=O)C(=O)N(C)C)CC2)ccc1F | - | radiometric | Ki | 0.0000024 µM
Cc1cc2c(cc1Cl)SC(C(=O)c1ccc(Cl)cc1)=NS2(=O)=O | INTG-C65S | strand transfer | fold resistance | 0.51
Cc1ncnn1-c1cc(F)ccc1CNC(=O)c1nc2n(c(=O)c1O)CCCOC21CCN(C(=O)N(C)C)CC1 | - | binding / radiometric | Ki | 0.003–0.05 µM
Cc1cc(CNC(=O)c2nc3n(c(=O)c2O)CC2(F)CCC3(NC(=O)c3cc(C(=O)N(C)C)on3)CC2)ccc1F | - | radiometric | Ki | 0.0000022 µM
CCCOc1cc(Cl)cc(CN2CCn3cc(-c4nccs4)c(=O)c(O)c3C2=O)c1 | - | ELISA | IC50 | 0.01–0.1 µM
Cc1cccc(CNC(=O)c2nc3n(c(=O)c2O)CC2(F)CCC3(NC(=O)C(=O)C(C)C)CC2)c1F | - | radiometric | Ki | 0.0000029 µM
Cn1nccc1CN1CCn2c(nc(C(=O)NCc3ccc(F)cc3)c(O)c2=O)C1(C)C | - | ELISA | IC50 | <10 µM
O=C(C1=NS(=O)(=O)c2ccc(Cl)cc2S1)c1ccc2ccccc2c1 | INTG-C65S | strand transfer | fold resistance | 4.37